Measured values published in US5646121A, “Pseudopeptides with antiviral activity” (Bayer Aktiengesellschaft, priority 1993, dated 1997).

What was measured:
HIV protease (HIV-1) = HIV protease (HIV-1) (Human immunodeficiency virus type 1 group M subtype B, UniProt P04585); assay: HIV-specific protease enzyme test (synthetic peptide cleavage, RP-HPLC); settings: read-out: IC50 (RP-HPLC) HIV-1; purified HIV protease, synthetic gag cleavage-site peptide, 50% inhibition of protease activity
Description: This is verified using an HIV-specific protease enzyme test.
The results of the examples listed below were obtained using the HIV test system described in the following literature reference [cf. Hansen, J., Billich, S., Schulze, T., Sukrow, S. and M olling, K. (1988), EMBO Journal, Vol, 7, No. 6, pp. 1785-1791]: purified HIV protease was incubated with synthetic peptide which imitates a cleavage site in the gag precursor protein and represents an in-vivo cleavage site for HIV protease. The cleavage products resulting from the synthetic peptide were analysed by reverse phase high performance liquid chromatography (RP-HPLC). The IC50 values which are given relate to that concentration of substance which brings about 50% inhibition of the protease activity under the above-listed test conditions.

HCMV (Davis) = assay: Anti-HCMV screening test: inhibition of the cytopathogenic effect in HELF cell cultures; assay type: cell-based, human cytomegalovirus; settings: for IC50: read-out: IC50 (HCMV), HCMV (Davis)-infected HELF cells, 6 days, concentration causing 50% inhibition of the CPE; for SI: selectivity index, defined by footnote 3 (drawing 26), HELF CIC50 versus HCMV IC50

| Compound | IC50 (HIV protease (HIV-1)) [nM] | IC50 (HCMV (Davis)) [nM] | SI (HCMV (Davis)) |
| --- | --- | --- | --- |
| Cc1ccc(S(=O)(=O)N=C(N)NCCC[C@H](NC(=O)OC(C)(C)C)C(=O)N[C@H](C(=O)NC(C=O)Cc2ccccc2)C(C)(C)C)cc1 (stereo partly drawn) | 1900 | 125 | 125 |
| Cc1ccc(S(=O)(=O)N=C(N)NCCC[C@H](NC(=O)OCc2ccc([N+](=O)[O-])cc2)C(=O)N[C@H](C(=O)N[C@H](CO)Cc2ccccc2)C(C)(C)C)cc1 | 2600 | – | – |
| Cc1ccc(S(=O)(=O)N=C(N)NCCC[C@H](NC(=O)c2c(F)cccc2F)C(=O)N[C@H](C(=O)NC(C=O)Cc2ccccc2)C(C)(C)C)cc1 (stereo partly drawn) | 19000 | – | – |
| Cc1ccc(S(=O)(=O)N=C(N)NCCC[C@H](NC(=O)OCc2ccncc2)C(=O)N[C@H](C(=O)N[C@H](CO)Cc2ccccc2)C(C)(C)C)cc1 | 13000 | – | – |
| Cc1ccc(S(=O)(=O)N=C(N)NCCC[C@H](NC(=O)Cc2ccccn2)C(=O)N[C@H](C(=O)NC(C=O)Cc2ccccc2)C(C)(C)C)cc1 (stereo partly drawn) | 210 | 980 | 191 |
